Measured values from several laboratories, pooled; numbers as filed in NIAID ChemDB.

Shared fields: growth or infection tests; agent: HIV-1; read by: p24 / ELISA; measure: EC50

Rows are shuffled and stem from different studies. An empty or dashed field is not shown. ECn is the concentration giving n% inhibition of infection, replication or growth.

structure,strain or isolate,cells,changes,value
Nc1ccn([C@H]2CC[C@@H](CO)O2)c(=O)n1,HXB2-MT 65+68 (RT K65R S68G),MT-2,RT-K65R S68G,0.44 µM
Cc1cn([C@H]2C[C@H](N=[N+]=[N-])[C@@H](CO)O2)c(=O)[nH]c1=O,IIIB,PBMC,,0.026 µM
O=C(C1CCCC1)N1C[C@H](N2CCC(N3CC=CN(Cc4ccc(C(F)(F)F)cc4)C3=O)CC2)[C@@](O)(c2ccccc2)C1,,PBMC,,>0.1 µM
O=c1[nH]cnc2c1ncn2[C@H]1CC[C@@H](CO)O1,HXB2D (RT-L74V),PBMC,RT-L74V,29 µM
N#C/C=C1/c2cc(S)cc([N+](=O)[O-])c2-c2c1cc(S(=O)(=O)NCc1ccccc1)cc2[N+](=O)[O-],IIIB,MT-4,,54.46 µM
C=CCN(C(=O)OCc1ccc2c(c1)OCO2)C1CCN([C@H]2CN(C(=O)C3CCCC3)C[C@]2(O)c2ccccc2)CC1,,PBMC,,>0.1 µM
Cc1cn([C@H]2C[C@H](N=[N+]=[N-])[C@@H](CO)O2)c(=O)[nH]c1=O,BaL,Monocytes + Monocyte,,0.001 µg/mL
Cc1cn([C@H]2C[C@H](N=[N+]=[N-])[C@@H](CO)O2)c(=O)[nH]c1=O,BH10,MT-4,,0.06803 µM
COC(=O)[C@@H]1CCCN1P(=O)(OC[C@H]1O[C@@H](N2C(=O)NC(=O)C(C)(Br)C2OC)C[C@@H]1N=[N+]=[N-])Oc1ccccc1,IIIB,PBMC,,0.246 µM
Cc1cn([C@@H]2O[C@H](CO)C[C@@H]2F)c(=O)[nH]c1=O,LAV,CEM,,>25 µg/mL
Cc1cn([C@H]2C[C@H](N=[N+]=[N-])[C@@H](CO)O2)c(=O)[nH]c1=O,IIIB,MT-2,M200I,0.153 µM
Nc1nc(=O)n([C@@H]2CS[C@H](CO)O2)cc1F,,Primary T lymphocytes,M184V,10.1 µM
O=C1c2ccccc2C2(c3ccccc3)SCCN12,IIIB,PBMC,,0.536 µM
Cc1cc(C)nc(N2C(=O)CSC2c2c(Cl)cccc2[N+](=O)[O-])c1,N119,PBMC,,0.95 µg/mL
Cc1cn([C@H]2C[C@H](N=[N+]=[N-])[C@@H](CO)O2)c(=O)[nH]c1=O,IIIB,PBMC,,0.005 µM
C1CNCCNCCCN(CCCN2CCCNCCNCCCNCC2)CCNC1,NL4-3,MT-4,,0.3 µg/mL
COC(=O)[C@H](CC(C)C)NP(=O)(OC[C@H]1O[C@@H](N2C(=O)NC(=O)C(C)(Br)C2OC)C[C@@H]1N=[N+]=[N-])Oc1ccc(Br)cc1,IIIB,PBMC,,0.026 µM
C=CCN(C(=O)NCc1ccc(F)cc1)C1CCN([C@H]2CN(C(=O)C3CCCC3)C[C@]2(O)c2ccccc2)CC1,,PBMC,,<50 µM
O=c1[nH]cnc2c1ncn2[C@H]1CC[C@@H](CO)O1,HXB2-MT 65+68 (RT K65R S68G),MT-2,RT-K65R S68G,2.4 µM
Cc1cn([C@H]2C[C@H](N=[N+]=[N-])[C@@H](CO)O2)c(=O)[nH]c1=O,,PBMC,,0.02 µM
C=CCN(C(=O)OCc1ccc(S(=O)ON(C)C)cc1)C1CCN([C@H]2CN(C(=O)C3CCCC3)C[C@]2(O)c2ccccc2)CC1,,PBMC,,<0.005 µM
COC(=O)[C@H](Cc1ccccc1)NP(=O)(OC[C@H]1O[C@@H](N2C(=O)NC(=O)C(C)(Br)C2OC)C[C@@H]1N=[N+]=[N-])Oc1ccc(Br)cc1,IIIB,PBMC,,0.035 µM
O=C(C1CCCC1)N1C[C@H](N2CCC(N(CC3CC3)C(=O)OCc3ccc([N+](=O)[O-])cc3)CC2)[C@@](O)(c2ccccc2)C1,,PBMC,,<0.05 µM
COC(=O)[C@H](Cc1c[nH]c2ccccc12)NP(=O)(OC[C@H]1O[C@@H](N2C(=O)NC(=O)C(C)(Br)C2OC)C[C@@H]1N=[N+]=[N-])Oc1ccc([N+](=O)[O-])cc1,IIIB,PBMC,,0.04 µM
Cc1ccnc2c1NC(=O)c1cccnc1N2C1CC1,N119,PBMC,,0.15 µg/mL
C=CCN(C(=O)OCc1ccc(S(=O)ONC)cc1)C1CCN([C@H]2CN(C(=O)C3CCCC3)C[C@]2(O)c2ccccc2)CC1,,PBMC,,<0.005 µM
N#CC[C@H](C1CCCC1)n1cc(-c2ncnc3[nH]ccc23)cn1,,Primary T lymphocytes,K65R,0.2 µM
CCOP(=O)(COc1ccc(C[C@H](NC(=O)O[C@H]2CO[C@H]3OCC[C@H]32)[C@H](O)CN(CC(C)C)S(=O)(=O)c2ccc(OC)cc2)cc1)OCC,IIIB,MT-2,D437N,0.008 µM
CCCCN1C(=O)[C@@H]([C@H](O)C2CCCCC2)NC(=O)C12CCN(Cc1ccc(Oc3ccc(C(=O)O)cc3)cc1)CC2,CC1/85 maraviroc-resistant isolate,PBMC,,0.3243 µM
C=C(C)[C@]12C[C@@H](COC(=O)c3ccccc3)[C@@]34O[C@]5(O[C@@H]1[C@@H]3[C@@H]1O[C@]1(CO)[C@@H](O)[C@@]1(O)[C@H]4[C@H]([C@H](C)[C@@H]1OC(=O)c1ccccc1)[C@H](C)CCCCCC[C@H]5O)O2,NL4-3,MT-4,,0.000031 µM
C1CNCCNCCCN(CCCN2CCCNCCNCCCNCC2)CCNC1,IIIB,PBL,,1.86 µM
COC(=O)[C@@H]1CCCN1P(=O)(OC[C@H]1O[C@@H](N2C(=O)NC(=O)C(C)(Br)C2OC)C[C@@H]1N=[N+]=[N-])Oc1ccc(Br)cc1,IIIB,PBMC,,0.049 µM
C[C@H](Cn1cnc2c(N)ncnc21)OCP(=O)(O)O,,,,1.3 µM
CCc1c(CC2CCCCC2)nc(SCC(=O)c2ccccc2)[nH]c1=O,NL4-3,C8166,V106A,0.734 µM
CC12CCC3C(CCC4CCCCC43C)C1CC(F)C2=O,IIIB,PBL(PHA-M) + PBL,,40 µM
Nc1ccn([C@@H]2O[C@H](CO)C[C@@H]2F)c(=O)n1,LAV,CEM,,0.92 µg/mL
C=CCN(C(=O)NCc1ccccc1)C1CCN([C@H]2CN(C(=O)C3CCCC3)C[C@]2(O)c2ccccc2)CC1,,PBMC,,>0.1 µM
Cc1cn([C@H]2C[C@H](N=[N+]=[N-])[C@@H](CO)O2)c(=O)[nH]c1=O,IIIB,C8166,,0.01 µM

4 of the rows above, restated:

structure	strain or isolate	cells	changes	value
Cc1cn([C@@H]2O[C@H](CO)C[C@@H]2F)c(=O)[nH]c1=O	LAV	CEM		>25 µg/mL
Cc1cn([C@H]2C[C@H](N=[N+]=[N-])[C@@H](CO)O2)c(=O)[nH]c1=O	IIIB	C8166		0.01 µM
COC(=O)[C@H](Cc1c[nH]c2ccccc12)NP(=O)(OC[C@H]1O[C@@H](N2C(=O)NC(=O)C(C)(Br)C2OC)C[C@@H]1N=[N+]=[N-])Oc1ccc([N+](=O)[O-])cc1	IIIB	PBMC		0.04 µM
CCCCN1C(=O)[C@@H]([C@H](O)C2CCCCC2)NC(=O)C12CCN(Cc1ccc(Oc3ccc(C(=O)O)cc3)cc1)CC2	CC1/85 maraviroc-resistant isolate	PBMC		0.3243 µM